# Reference: patent US11344600B2
# By UniProt entry, the sequences of proteins in these tests, tags left out. Residues count along the entry.
# UniProt Q83883, 1101-1281 limits assumed: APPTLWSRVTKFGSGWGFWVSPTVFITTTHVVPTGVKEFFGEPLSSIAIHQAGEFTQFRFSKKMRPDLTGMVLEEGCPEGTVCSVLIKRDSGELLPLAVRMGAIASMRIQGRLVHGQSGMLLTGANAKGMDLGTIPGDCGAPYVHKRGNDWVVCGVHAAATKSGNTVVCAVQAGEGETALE
# Target: NVPro (Norovirus, UniProt Q83883)
# Assay: Inhibition of Norwalk virus protease (NVPro)
# Conditions: read-out: Ki value
smiles,measurement,value
O=C[C@@H]1CCC(=O)N2CC[C@H](C2)OC/C=C\CC[C@@H](NC(=O)OCc2ccccc2)C(=O)N[C@@H](Cc2ccccc2)C(=O)N1,Ki,500 nM
